Results of unrelated studies side by side (data: NIAID ChemDB).

Shared fields: toxicity to cultured cells; cells: KB; endpoint: CC50

CCn is the concentration with n% toxicity to the cells.

C=C1[C@H](O)[C@@H](CO)S[C@@H]1n1cc(CCO)c(=O)[nH]c1=O ; method: MTT ; value: >100 µg/mL
CC(=O)O[C@@H]1[C@H](OC(C)=O)[C@@H](CN=[N+]=[N-])O[C@H]1n1c(Cl)nc2cc(Cl)c(Cl)cc21 ; value: 70 µM
COC(=O)c1nnn([C@@H]2C(=O)N(c3ccc(Cl)cc3)[C@@H]2/C=C/c2ccccc2)c1C(=O)OC ; value: 145 µM
OCCOCc1c(Cl)nc2cc(Cl)c(Cl)cn12 ; value: >100 µM
COC1=Cc2c(cc(OC3=C4C(=CC(=O)C4(C)C)c4cc(OC)c(C)cc4C3=O)c3cc(C)c(OC)cc23)C(C)(C)C1=O ; method: absorbance ; value: >10 µM
OC[C@H]1O[C@@H](n2c(Cl)nc3cc(Cl)c(Cl)cc32)[C@H](O)[C@@H]1O ; value: 210 µM
COC[C@H]1O[C@@H](n2c(Cl)nc3cc(Cl)c(Cl)cc32)[C@H](O)[C@@H]1O ; value: 90 µM
COC(=O)c1nnn([C@@H]2C(=O)N(C3CCCCC3)[C@@H]2/C=C/c2ccccc2)c1C(=O)OC ; value: >228 µM
O[C@@H]1[C@H](O)CO[C@H]1c1c(Cl)nc2cc(Cl)c(Cl)cn12 ; value: >100 µM
CN1N=C(N)c2cn([C@@H]3O[C@H](CO)[C@@H](O)[C@H]3O)c3nc(Cl)nc1c23 ; value: 33 µM
OCCOCn1cnc2c(Cl)c(Cl)ccc21 ; value: >100 µM
CC1(C)CCC[C@]2(C)[C@H]3C[C@@H](C4=CCOC4=O)CC3=CC[C@@H]12 ; method: absorbance ; value: 20.2 µM
COc1c(C)c(C)c2[nH]c3ccc(Cc4c(C)c(OC)c(O)c5c4[nH]c4ccccc45)cc3c2c1O ; method: resazurin ; value: 36.8 µg/mL
CC(C)=CCC/C(C)=C/CC/C(=C\CC/C(C)=C/C(=O)O)C(=O)O ; method: resazurin ; value: >20 µg/mL
CC(C)Nc1nc2cc(Cl)c(Cl)cc2n1[C@@H]1O[C@@H](CO)[C@@H](O)[C@H]1O ; value: >100 µM
C=C1[C@H](n2cc(/C=C/Br)c(=O)[nH]c2=O)S[C@H](CO)[C@H]1O ; method: MTT ; value: >100 µg/mL
O=C1Cn2c(nc3c(c2=S)C2=C(CCC/C2=C\c2ccncc2)C(c2ccncc2)S3)S1 ; method: MTT ; value: 42.5 µM
COc1c(C)c(C)c2[nH]c3ccccc3c2c1O ; method: resazurin ; value: 8.6 µg/mL
CCOC(=O)c1ccc(OCCC2CCN(c3ccc(C)nn3)CC2)cc1 ; value: >13.35 µM
N#Cc1c(N)c2c3c([nH]c2[nH]c1=O)SC(c1ccncc1)C1=C3/C(=C/c2ccncc2)CCC1 ; method: MTT ; value: 13.9 µM
CC(=O)O[C@@H]1[C@H](OC(C)=O)[C@@H](CBr)O[C@H]1n1c(Cl)nc2cc(Cl)c(Cl)cc21 ; value: 60 µM
C=C1[C@H](n2cc(C)c(=O)[nH]c2=O)S[C@H](CO)[C@H]1O ; method: MTT ; value: >100 µg/mL
OCC(CO)OCn1c(=S)[nH]c2c(Cl)cc(Cl)cc21 ; value: >100 µM
C[C@H]1O[C@H](n2c(Br)nc3cc(Cl)c(Cl)cc32)[C@@H](O)[C@H]1O ; value: >100 µM
Nc1nc(N)c2cc3c(ccc4ccccc43)nc2n1 ; method: MTT ; value: 6.7 µM
CC(=O)O[C@H]1[C@H](n2c(Cl)nc3cc(Cl)c(Cl)cc32)OC[C@H]1OC(C)=O ; value: 45 µM
C=C1[C@H](O)[C@@H](CO)S[C@@H]1n1cc(C)c(=O)[nH]c1=O ; method: MTT ; value: >100 µg/mL
CCOc1ccc(N2C(=O)CCNC2=S)cc1 ; value: >1 µg/mL
Cc1ncc(-c2c[nH]c3ccccc23)o1 ; method: resazurin ; value: >50 µg/mL
CC(=O)O[C@@H]1[C@H](OC(C)=O)[C@@H](CCl)O[C@H]1n1c(Cl)nc2cc(Cl)c(Cl)cc21 ; value: 90 µM
CC(=O)O[C@@H](C/C=C(\C)C(=O)O)[C@@H](C)[C@H]1CC[C@@]2(C)C3=C(CC[C@]12C)[C@@]1(C)CCC(=O)C(C)(C)C1CC3 ; method: resazurin ; value: 34.69 µg/mL
Nc1nc2c(ncn2COC(CO)CO)c(=O)[nH]1 ; value: >100 µM
OCCOCn1c(Cl)nc2cc(Cl)c(Cl)cc21 ; value: >320 µM
CCOC[C@H]1O[C@@H](n2c(Cl)nc3cc(Cl)c(Cl)cc32)[C@H](OC(C)=O)[C@@H]1OC(C)=O ; value: 60 µM
C[C@H]([C@@H]1CC[C@@H](C)C(=O)O1)[C@H]1CC[C@@]2(C)C3=C(CC[C@]12C)[C@@]1(C)CC[C@@H](O)C(C)(C)C1CC3 ; method: resazurin ; value: >50 µg/mL
COc1ccc(Cn2cc(C(N)=S)c3c(N)ncnc32)cc1 ; value: 36 µM
CCc1c(O)c2c(c(O)c1OC)C(=O)C(OC)CC2 ; value: 13.63 µg/mL
OCCSCc1c(Cl)nc2cc(Cl)c(Cl)cn12 ; value: >100 µM
CNc1nc2c(Cl)c(Cl)ccc2n1COC(CO)CO ; value: >100 µM
C/C(=C\C[C@H](O)[C@@H](C)[C@H]1CC[C@@]2(C)C3=C(CC[C@]12C)[C@@]1(C)CCC(=O)C(C)(C)C1CC3)C(=O)O ; method: resazurin ; value: 19.99 µg/mL
CCOC[C@H]1O[C@@H](n2c(Cl)nc3cc(Cl)c(Cl)cc32)[C@H](O)[C@@H]1O ; value: 80 µM
Clc1cc2nc(Cl)c(COCc3ccccc3)n2cc1Cl ; value: >100 µM
CN(C)c1nc2cc(Cl)c(Cl)cc2n1COC(CO)CO ; value: >100 µM
COc1ccc2[nH]c3c(C)c(C)c(OC)c(O)c3c2c1 ; method: resazurin ; value: 21.4 µg/mL
Cc1cc(=O)[nH]c2c1ccc1ncc(C(=O)O[C@@H]3CC4CCC3(C)C4(C)C)c(C)c12 ; value: 5 µg/mL
COc1cc([C@@H]2CCc3ccc(O)cc3O2)ccc1O ; method: resazurin ; value: 16.24 µg/mL
O=c1[nH]c(=S)[nH]c2c3c([nH]c12)SC(c1ccncc1)C1=C3/C(=C/c2ccncc2)CCC1 ; method: MTT ; value: 12.8 µM
CC(C)Oc1ccc(N2C(=O)CCNC2=S)cc1 ; value: >1 µg/mL
O[C@@H]1[C@H](O)CO[C@H]1n1c(Br)nc2cc(Cl)c(Cl)cc21 ; value: 50 µM
Cc1ccc(Cn2c(N)c(C#N)c3c(N)ncnc32)cc1 ; value: 90 µM
CN1N=C(N)c2cn([C@@H]3O[C@H](CO)[C@@H](O)[C@H]3O)c3nc(N)nc1c23 ; value: 60 µM
OCCOCn1c(SCc2ccccc2)nc2cc(Cl)c(Cl)cc21 ; value: 55 µM
O[C@@H]1[C@H](O)CO[C@H]1n1c(Cl)nc2cc(Cl)c(Cl)cc21 ; value: 60 µM
OCCOCn1cnc2cc(Cl)c(Cl)cc21 ; value: >100 µM
COC[C@H]1O[C@@H](n2c(Cl)nc3cc(Cl)c(Cl)cc32)[C@H](OC(C)=O)[C@@H]1OC(C)=O ; value: 80 µM
OCCOCn1c(=S)[nH]c2c(Cl)c(Cl)ccc21 ; value: >100 µM
CCCCOC[C@H]1O[C@@H](n2c(Cl)nc3cc(Cl)c(Cl)cc32)[C@H](O)[C@@H]1O ; value: 60 µM
Cc1nc2c3c(cn([C@@H]4O[C@H](CO)[C@@H](O)[C@H]4O)c3n1)C(N)=NN2C ; value: >100 µM
CCCCCCCCN1C(=O)CCNC1=S ; value: 1.8 µg/mL
C=C1[C@H](O)[C@@H](CO)S[C@@H]1n1cc(CCCl)c(=O)[nH]c1=O ; method: MTT ; value: >100 µg/mL
OC[C@H]1O[C@@H](n2c(Cl)nc3cc(Cl)c(Cl)cc32)[C@H](O)[C@@H]1O ; value: 210 µM
COc1cccc2c1C(=O)c1ccc3cc(C)cc(O)c3c1C2=O ; method: resazurin ; value: 26.5 µM
C=C1[C@H](n2cc(CCCl)c(=O)[nH]c2=O)S[C@H](CO)[C@H]1O ; method: MTT ; value: >100 µg/mL
COc1ccc(N2C(=O)CCNC2=S)cc1 ; value: >1 µg/mL
O=C1[C@@H](n2cc(-c3ccccc3)nn2)[C@@H](/C=C/c2ccccc2)N1C1CCCCC1 ; value: 8.36 µM

Conditions beyond the fields shown may differ between rows.